Measured values from several laboratories, pooled; numbers as filed in NIAID ChemDB.

Shared fields: whole-cell or culture tests; species: Mycobacterium tuberculosis

Rows are shuffled and stem from different studies. MIC bound: limit read from a one-dose screen. An empty or dashed field is not shown. A number after MIC or MFC names an inhibition level or a share of isolates. Percent inhibition refers to the dose given; in toxicity tests it is the harm to the cells. ECn is the concentration giving n% inhibition of infection, replication or growth.

structure | strain | cells | method | setting | measure | tested at | result
O=C(c1ccc(CCc2ccccc2)cc1)C(Cl)Cl | H37Rv | - | - | - | MIC | - | 6.25 µg/mL
Cc1ccc2nc(Nc3ncnc4ccccc34)sc2c1 | H37Rv | - | luminescence | - | MIC50 | - | >20 µM
Cc1ccc2[nH]c(=O)oc(=O)c2c1 | H37Rv | - | BACTEC | - | inhibition | 6.25 µg/mL | 0%
Fc1ccc(C2CCN(c3ccc(Nc4ncnc5ccccc45)cc3)CC2)cc1 | H37Rv | - | luminescence | - | MIC50 | - | >50 µM
O=C1C2=Nc3ccccc3C(c3c[nH]c4ccccc34)N2c2ccccc21 | H37Rv | - | resazurin | - | MIC90 | - | >50 µg/mL
CN(C)c1ccc(CNc2ncnc3ccccc23)cc1 | H37Rv | - | luminescence | - | MIC50 | - | >20 µM
O=C(Nc1cccc(F)c1)c1cccc2nc3ccccc3nc12 | H37Rv 27294 | - | - | - | MIC | - | 0.78 µg/mL
c1ccc2c(c1)NC(c1ccc3c(c1)Sc1cc(C4Nc5ccccc5N4)ccc1O3)N2 | H37Rv | - | BACTEC | - | inhibition | 12.5 µg/mL | 18%
Fc1cc(N2CCN(c3ccc(C(F)(F)F)cn3)CC2)ccc1CNc1ncnc2ccccc12 | H37Rv | - | luminescence | - | MIC50 | - | >20 µM
c1ccc2c(c1)nnn1c3ncccc3nc21 | H37Rv | - | resazurin | - | MIC bound | - | <6.25 µg/mL
CC(=O)Oc1ccccc1C(=O)Nc1ncc([N+](=O)[O-])s1 | ND spoligotype 4 | - | visual reading | - | MIC | - | 17.3 µg/mL
CCOC(=O)c1nc2ccccc2c(=O)[nH]1 | H37Rv | - | BACTEC | - | MIC bound | - | >12.5 µg/mL
O=C(c1ccc(CNc2ncnc3ccccc23)cc1)N1CCOCC1 | H37Rv | - | luminescence | - | MIC50 | - | 34.9 µM
COC(=O)/C(=N\O)c1[nH]c2ccccc2c1[C@H]1SC[C@@H](O)C(c2ccc(O)c(OC)c2)(c2ncc[nH]2)S1 | H37Rv | - | - | - | inhibition | 12.5 µg/mL | 10%
O=C(Nc1ccc(F)cc1)c1cccc2nc3ccccc3nc12 | H37Rv 27294 | - | - | - | MIC | - | 0.19 µg/mL
Cc1c(C#N)c(=O)oc2cc(OCc3ccc(Br)cc3)ccc12 | H37Rv | - | fluorescence | - | inhibition | 100 µM | 66.48%
O=C(c1ccc(Oc2ccccc2)cc1)C(Br)Br | H37Rv | - | - | - | MIC | - | 25 µg/mL
COCCc1c(C(=O)OC)[n+](=O)c2cc(Cl)c(Cl)cc2n1[O-] | H37Rv | - | - | inside macrophages | EC90 | - | >1.56 µg/mL
COc1c(Cl)cc(-c2ccc(C(=O)C(Cl)Cl)cc2)cc1Cl | H37Rv | - | - | - | MIC | - | 6.25 µg/mL
O=c1ccc2ccc(OCCN3CCC(Cc4ccccc4)CC3)cc2o1 | H37Rv | - | fluorescence | - | inhibition | 100 µM | 84.57%
CCOC(=O)c1cn(Cc2ccc(F)cc2)cc1-c1ccccc1 | CIP103471 | - | - | - | MIC | - | 125 µg/mL
COc1ccc(C2CC(=O)NN2)cc1 | BCG | - | - | - | MIC | - | >100 µg/mL
COc1ccc(-c2cn(C)cc2[N+](=O)[O-])c(Cl)c1 | CIP103471 | - | - | - | MIC | - | >250 µg/mL
COc1ccc(NC(=O)c2cccc3nc4ccccc4nc23)cc1OC | H37Rv 27294 | - | - | - | MIC | - | 0.39 µg/mL
FC(F)(F)c1ccc(N2CCC3(CCN(c4ccc(Nc5ncnc6cc[nH]c56)cc4)CC3)CC2)cc1 | H37Rv | - | luminescence | - | MIC50 | - | >50 µM
S=C(Nc1ccc(Cl)cc1)c1ccccn1 | H37Rv | VERO | resazurin | - | MIC | - | 0.78 µg/mL
Cc1c(Cl)c(=O)oc2cc(OCc3ccccc3)ccc12 | H37Rv | - | fluorescence | - | inhibition | 100 µM | 24.48%
NC(=O)c1cnccn1 | 592 strains | - | agar | - | EC50 | - | <25 µg/mL
CO[C@@H]1[C@H](O)[C@@H](C)O[C@@H](OC[C@H](C)[C@H]2OC(=O)[C@H](C)[C@@H](O[C@H]3C[C@@H](C)N(C)C[C@H](C)O3)[C@H](C)[C@@H](O[C@@H]3O[C@H](C)CC(=O)[C@H]3O)[C@@H](C)C[C@](C)(OC(=O)N3C[C@@H](C)O[C@@H](C)C3)C(=O)[C@H](C)[C@H](OC(=O)CC(C)C)[C@H]2C)[C@@H]1OC | H37Rv | - | resazurin | - | MIC | - | 1.26 µM
O=C(c1ccc(-c2ccc(C(=O)C(Br)Br)cc2)cc1)C(Br)Br | H37Rv | - | - | - | MIC | - | 6.25 µg/mL
COc1cccc(/C=C/C(=O)NN)c1OC | BCG | - | - | - | MIC | - | 20 µg/mL
Cc1cc(=O)oc2cc(OCCN3CCC(Cc4ccccc4)CC3)ccc12 | H37Rv | - | fluorescence | - | inhibition | 1 µM | 4.9%
FC(F)(F)c1cccnc1Oc1ccc(Nc2ncnc3ccccc23)cc1 | H37Rv | - | luminescence | - | MIC50 | - | >20 µM
NNC(=O)c1ccccc1 | Mtb 365 | - | - | - | MIC | - | 2 µg/mL
Cc1cccc(C)c1NC(=O)c1cccc2nc3ccccc3nc12 | H37Rv 27294 | - | - | - | MIC | - | 3.12 µg/mL
COC(=O)C1CC(OC(C)=O)C2OC(C)(C)OC2C1OC(C)=O | H37Rv | - | BACTEC | - | inhibition | 12.5 µg/mL | 26%
CC(C)=CC(=O)C[C@@H](C)[C@H]1CC[C@@]2(C)C(=O)C=C(C)CC[C@H]12 | H37Rv | - | - | - | inhibition | 6.25 µg/mL | 0%
CCOC(=O)c1cn(Cc2ccc(Cl)cc2)cc1-c1ccncc1 | CIP103471 | - | - | - | MIC | - | 0.5 µg/mL
COc1ccc(C(Br)C(Br)C(=O)O)cc1 | BCG | - | - | - | MIC | - | >100 µg/mL
N#CC(C#N)=C1C=Cc2ccccc2O1 | H37Rv | - | BACTEC | - | inhibition | 12.5 µg/mL | 45%
FC(F)(F)c1ccccc1CCNc1ncnc2ccccc12 | H37Rv | - | luminescence | - | MIC50 | - | >50 µM
NNC(=O)/C=C/c1ccc(Br)cc1 | BCG | - | - | - | MIC | - | 5 µg/mL
COc1ccccc1NC(=O)C(N=Nc1ccc(S(=O)(=O)Nc2nccc(C)n2)cc1)C(C)=O | H37Rv | - | resazurin | - | inhibition | 6.25 µg/mL | -3%
Cn1ccc2ncnc(Nc3ccc(Oc4ccc(C(F)(F)F)cc4)cc3)c21 | H37Rv | - | luminescence | - | MIC50 | - | 15 µM
O=C(c1ccc(Br)cc1)c1ccc(-c2ccc(Br)cc2)cc1 | ATCC 27294 | - | - | - | MIC | - | ≤0.5 µg/mL
OC(c1cc2ccc(C(F)(F)F)cc2c2cc(C(F)(F)F)ccc12)C1CCCCN1 | H37Rv | - | - | - | inhibition | 6.25 µg/mL | 100%
O=C1C(c2c(O)[nH]c3ccccc23)=Nc2ccccc21 | H37Rv | - | resazurin | - | MIC90 | - | >32 µg/mL
N[C@@H]1CONC1=O | 35 strains | - | agar | - | EC50 | - | <30 µg/mL
COc1ccc(/C=N/NC(=O)C(=O)N/N=C/c2ccc(OC)c(OC)c2)cc1OC | H37Rv | - | BACTEC | - | MIC bound | - | >12.5 µg/mL
CO[C@H]1/C=C/O[C@@]2(C)Oc3c(C)c(O)c4c(O)c(c5c(c4c3C2=O)NC2(C[C@@H](c3ccccc3)N[C@@H](c3ccccc3)C2)N=5)=NC(=O)/C(C)=C\C=C\[C@H](C)[C@H](O)[C@@H](C)[C@H](O)[C@H](C)[C@H](OC(C)=O)[C@@H]1C | ATCC 35838 (rifampicin- rifabutin-resistant) | - | - | - | MIC | - | 1 µg/mL
FC(F)(F)c1cnc(Oc2ccc(Nc3ncnc4ccccc34)cc2)c(Cl)c1 | H37Rv | - | luminescence | - | MIC50 | - | >50 µM
CCCCN1[C@@H](c2ccccc2)CC2(C[C@H]1c1ccccc1)N=c1c(c3c4c5c(C)c(O)c3c(O)c1=NC(=O)/C(C)=C\C=C\[C@H](C)[C@H](O)[C@@H](C)[C@H](O)[C@H](C)[C@H](OC(C)=O)[C@H](C)[C@@H](OC)/C=C/O[C@@](C)(O5)C4=O)N2 | ATCC 35837 (ethambutol-resistant) | - | - | - | MIC | - | 0.02 µg/mL
CCOC(=O)c1cn(C)cc1-c1ccc(OC)cc1 | CIP103471 | - | - | - | MIC | - | 16 µg/mL
O=C(c1ccc(Sc2ccc(C(=O)C(Br)Br)cc2)cc1)C(Br)Br | H37Rv | - | - | - | MIC | - | 6.25 µg/mL
O=C(O)c1cn(C2CC2)c2c(Cl)c(N3C[C@@H]4CCCN[C@@H]4C3)c(F)cc2c1=O | Resistant | - | - | - | MIC50 | - | 0.06 µg/mL
Cc1nc(NCCc2ccc(OC(F)(F)F)cc2)c2ccc(F)cc2n1 | H37Rv | - | luminescence | - | MIC50 | - | 4.82 µM
CC(=O)c1c(O)cc2c3c1OC(C)(C)C1CCC(C)(CC31)O2 | H37Rv | - | BACTEC | - | inhibition | 12.5 µg/mL | -11%
FC(F)(F)Oc1ccc(Oc2ccc(Nc3ncnc4ccoc34)cc2)cc1 | H37Rv | - | luminescence | - | MIC50 | - | >20 µM
CCc1cc(C(N)=S)ccn1 | 592 strains | - | agar | - | inhibition | 5 µg/mL | 88%
FC(F)(F)c1cccc(Oc2ccc(Nc3ncnc4ccccc34)cc2)c1 | H37Rv | - | luminescence | - | MIC50 | - | >40 µM
COc1ccc(OC)c(/C=N/NC(=O)c2ccccc2N(C)C)c1 | H37Rv | - | BACTEC | - | MIC bound | - | >12.5 µg/mL
Cc1nc(Nc2ccc(Oc3cccc(C(F)(F)F)c3)cc2)c2ccc(F)cc2n1 | H37Rv | - | luminescence | - | MIC50 | - | >20 µM
O=C(CCl)c1ccc(-c2ccc(C(=O)CCl)cc2)cc1 | H37Rv | - | - | - | MIC | - | 12.5 µg/mL
Fc1ccc2c(NCCc3ccccc3)ncnc2c1 | H37Rv | - | luminescence | - | MIC50 | - | >50 µM
C/C(=N\NC(=O)CC(=O)Nc1ccc(C)cc1)c1cc2ccccc2oc1=O | H37Rv | - | BACTEC | - | inhibition | 12.5 µg/mL | 7%
O=C1N=c2ccccc2=C1c1c(O)[nH]c2ccccc12 | H37Rv | - | resazurin | - | MIC90 | - | >32 µg/mL
O=C1NC(=O)C2C3OC(C(Br)C3Br)C12 | H37Rv | - | BACTEC | - | MIC bound | - | >12.5 µg/mL
CN[C@@H]1[C@H](O[C@H]2[C@H](O[C@H]3[C@H](O)[C@@H](O)[C@H](N=C(N)N)[C@@H](O)[C@@H]3N=C(N)N)O[C@@H](C)[C@]2(O)C=O)O[C@@H](CO)[C@H](O)[C@H]1O | TN2793 | - | - | - | MIC | - | >2 µg/mL
O=C(N/N=C/c1ccc2c(c1)OCO2)C(=O)N/N=C/c1ccc2c(c1)OCO2 | H37Rv | - | BACTEC | - | inhibition | 12.5 µg/mL | 20%
O=C(Nc1ccccc1F)c1cccc2nc3ccccc3nc12 | H37Rv 27294 | - | - | - | MIC | - | 1.56 µg/mL
COc1ccc2[nH]c3c(C)c4c(c(C)c3c2c1)CN(C)CC4 | H37Rv | - | resazurin | - | inhibition | 6.25 µg/mL | 61%
FC(F)(F)c1cccc(Oc2ccc(CNc3ncnc4ccccc34)cc2)c1 | H37Rv | - | luminescence | - | MIC50 | - | >20 µM
CC1CC(N)=NC1C(=O)NCCC#N.Cl | H37Rv | - | BACTEC | - | MIC | - | ≥12.5 µg/mL
Cc1ccc(C(=O)c2ccc(-c3ccc(Br)cc3)cc2)cc1 | ATCC 27294 | - | - | - | MIC | - | ≥32 µg/mL
O=[N+]([O-])C1=CN2C[C@H](OCc3ccc(OC(F)(F)F)cc3)COC2N1 | F420- | - | broth dilution | - | MIC | - | >100 µM
O=[N+]([O-])OC1CCCC(O[N+](=O)[O-])c2c1n([O-])c1ccccc1[n+]2=O | H37Rv | - | resazurin | - | MIC | - | 0.39 µg/mL
Cc1c(C#N)c(=O)oc2cc(OCc3ccccc3)ccc12 | H37Rv | - | fluorescence | - | inhibition | 100 µM | 44.56%
CO[C@@H]1[C@H](O)[C@@H](C)O[C@@H](OC[C@H](C)[C@H]2OC(=O)[C@H](C)[C@@H](O[C@H]3C[C@@H](C)N(C)C[C@H](C)O3)[C@H](C)[C@@H](O[C@@H]3O[C@H](C)CC(=O)[C@H]3O)[C@@H](C)C[C@](C)(OC(=O)N3CCO[C@@H](C)C3)C(=O)[C@H](C)[C@H](OC(=O)CC(C)C)[C@H]2C)[C@@H]1OC | H37Rv | - | resazurin | - | MIC | - | 1.6 µM
O=C(c1ccc(I)cc1)c1ccc(-c2ccc(Br)cc2)cc1 | ATCC 27294 | - | - | - | MIC | - | ≥32 µg/mL
COc1ccc(-c2ccc(C(=O)C(Cl)Cl)cc2)cc1Cl | H37Rv | - | - | - | MIC | - | 12.5 µg/mL
Cc1nc2nc(N)nnc2c(=O)[nH]1 | H37Rv | - | BACTEC | - | MIC bound | - | >12.5 µg/mL
FC(F)(F)c1ccc(CNc2ncnc3ccccc23)c(N2CCOCC2)c1 | H37Rv | - | luminescence | - | MIC50 | - | >10 µM
CC(C)=CCC[C@H](C)[C@H]1CC[C@H](C)c2c1cc(C)c1ncoc21 | - | - | - | - | inhibition | 12.5 µg/mL | 66%
COC(=O)c1ccc(C(=O)OC)c2nn3c(N)nnc3nc12 | H37Rv | - | resazurin | - | inhibition | 6.25 µg/mL | -16%
CCn1cc(C(=O)O)c(=O)c2cc(F)c(N3CCNCC3)cc21 | 134 strains | - | - | - | MIC90 | - | 8 µg/mL
FC(F)(F)c1cccc(Oc2ccc(CNc3ncnc4ccsc34)cc2)c1 | H37Rv | - | luminescence | - | MIC50 | - | >50 µM
CO[C@H]1/C=C/O[C@@]2(C)Oc3c(C)c(O)c4c(O)c(c5c(c4c3C2=O)NC2(C[C@@H](c3ccc(F)cc3)N[C@@H](c3ccc(F)cc3)C2)N=5)=NC(=O)/C(C)=C\C=C\[C@H](C)[C@H](O)[C@@H](C)[C@H](O)[C@H](C)[C@H](OC(C)=O)[C@@H]1C | ATCC 35838 (rifampicin- rifabutin-resistant) | - | - | - | MIC | - | 0.5 µg/mL

A second listing of 4 rows from above:

structure,strain,cells,method,setting,measure,tested at,result
NNC(=O)c1ccccc1,Mtb 365,-,-,-,MIC,-,2 µg/mL
CC1CC(N)=NC1C(=O)NCCC#N.Cl,H37Rv,-,BACTEC,-,MIC,-,≥12.5 µg/mL
Cc1nc2nc(N)nnc2c(=O)[nH]1,H37Rv,-,BACTEC,-,MIC bound,-,>12.5 µg/mL
Cc1cc(=O)oc2cc(OCCN3CCC(Cc4ccccc4)CC3)ccc12,H37Rv,-,fluorescence,-,inhibition,1 µM,4.9%